Data reported in PMC11735809, “Structural basis of Spliced Leader RNA recognition by the Trypanosoma brucei cap-binding complex” (Nature Communications, 2025).

Experiments:
[1] = system: TbCBC-trimer (TbCBP20-TbCBP110-TbCBP30) (Trypanosoma brucei); assay: cryo-EM; settings: 2.8 A, m7GTP moiety resolved, following nucleotides flexible; 5' cap4: m7Gppp, m6,6Am1, Am2, Cm3, m3Um4; recombinant protein; residues 1-187
[2] = system: TbCBC-dimer (TbCBP20-TbCBP110) (Trypanosoma brucei); assay: EMSA; settings: EMSA: 20 mM HEPES pH 7.5, 50 mM NaCl, 5 mM MgCl2, Tween (0.05% in RNA buffer), RNA stock 50 nM mixed 1:1, 30 min on ice, 6% native PAGE 4 C, recombinant protein, residues 1-187, label: none (SYBR Gold)
[3] = system: TbCBC-tetramer (TbCBP20-TbCBP110-TbCBP30-TbCBP66) (Trypanosoma brucei); assay: EMSA; settings: binding independent of m7G, EMSA: 20 mM HEPES pH 7.5, 50 mM NaCl, 5 mM MgCl2, Tween (0.05% in RNA buffer), RNA stock 50 nM mixed 1:1, 30 min on ice, 6% native PAGE 4 C, recombinant protein, residues 1-187, label: none (SYBR Gold)
[4] = system: TbCBC-trimer (TbCBP20-TbCBP110-TbCBP30) (Trypanosoma brucei); assay: EMSA; settings: EMSA: 20 mM HEPES pH 7.5, 50 mM NaCl, 5 mM MgCl2, Tween (0.05% in RNA buffer), RNA stock 50 nM mixed 1:1, 30 min on ice, 6% native PAGE 4 C, recombinant protein, residues 1-187, label: none (SYBR Gold)
[5] = similar affinity to cap4, 5' m7Gppp cap (cap0)
[6] = similar affinity to cap0, 5' cap4: m7Gppp, m6,6Am1, Am2, Cm3, m3Um4

Sequence: AACUA [cap4 hexanucleotide m7Gpppm6,6AmpAmpCmpm3UmpA]
- binding result [1]: binds

Sequence: AACUAACGCUAUUAUUAGAACAGUUUCUGUACUAUAUUG [OH-SLe (uncapped SL RNA exon, 39 nt)]
- binding result ([2]; does not strongly interact): binds more weakly
- binding result [3]: binds
- binding result ([4]; does not strongly interact): binds more weakly

Sequence: AACUAACGCUAUUAUUAGAACAGUUUCUGUACUAUAUUG [cap0-SLe]
- binding result [2, 5]: binds
- binding result ([3]; 5' m7Gppp cap (cap0)): binds
- binding result [4, 5]: binds

Sequence: AACUAACGCUAUUAUUAGAACAGUUUCUGUACUAUAUUG [cap4-SLe]
- binding result [2, 6]: binds
- binding result ([3]; 5' cap4: m7Gppp, m6,6Am1, Am2, Cm3, m3Um4): binds
- binding result [4, 6]: binds

For at least one entry, the source does not settle the construct or the ends of the probe. For some of these results: The comparison behind a weaker result is the experiment's own reference, which may not be listed here. For some of these results: At least one verdict rests on a figure or table, not on a statement of the authors.
